Measured values from several laboratories, pooled; numbers as filed in NIAID ChemDB.

Common to all: tests in culture; species: HIV-1; cells: MT-4; read-out: EC50

An empty or dashed field is not shown. Lines come from different laboratories, so protocols vary. ECn is the concentration giving n% inhibition of infection, replication or growth.

structure	strain	mutations	read by	result
COC(=O)N[C@H](C(=O)N[C@@H](Cc1ccc(C#Cc2ccc(N3CC4COCC(C3)N4C)nc2)cc1)[C@@H](O)CN(Cc1c(F)cc(-c2ccn(CC(F)F)n2)cc1F)NC(=O)[C@@H](NC(=O)OC)C(C)(C)C(F)(F)F)C(C)(C)C(F)(F)F	IIIB		luminescence	0.00232 µM
Cc1nc(CCCCCCC(=O)c2ccccc2)n2nc(NCCCCCCCCCCCCNCc3cn([C@H]4C=C[C@@H](CO)O4)c(=O)[nH]c3=O)ccc12	IIIB		RT activity	0.12 µM
Cc1cc(-c2ccc(C#N)cc2)cc(C)c1Oc1ccnc(S(=O)(=O)C(C)C(=O)Nc2ccc(C#N)cc2)n1	IIIB	E138K	MTT	0.041 µM
Cc1cc(/C=C/C#N)cc(C)c1Oc1nc(NC2CCN(Cc3cccc(C#N)c3)CC2)nc2ccsc12	RES056		MTT	0.115 µM
CN(C)C=Nc1ccn([C@H]2C[C@H](CO)[C@@H](CO)O2)c(=O)n1	TIBO-resistant		XTT	9.1 µM
Cc1cn([C@@H]2O[C@H](C3CO[Si](C(C)C)(C(C)C)O[Si](C(C)C)(C(C)C)O3)C3(OS(=O)(=O)C=C3N)[C@H]2O[Si](C)(C)C(C)(C)C)c(=O)[nH]c1=O	IIIB		cytopathic effect	>26.7 µM
O=c1nc(N=CN2CCCC2)ccn1[C@H]1C[C@H](CO)[C@@H](CO)O1	IIIB		XTT	7.7 µM
Cc1nc(CCCCCCC(=O)c2ccccc2)n2nc(NCCCCCCCCCCN)ccc12	IIIB		RT activity	>10 µM
Cc1cc(C#N)cc(C)c1Oc1nc(NC2CCC(NCc3ccc(S(C)(=O)=O)cc3)CC2)nc2ccsc12	IIIB	NNRTI-resistant (RT E138K)	MTT	0.135 µM
COC(=O)N[C@H](C(=O)N[C@@H](Cc1ccc(C#Cc2ccc(N3C[C@@H]4C[C@H]3CN4C3COC3)nc2)cc1)[C@@H](O)CN(Cc1c(F)cc(-c2nnc(C)o2)cc1F)NC(=O)[C@@H](NC(=O)OC)C(C)(C)C(F)(F)F)C(C)(C)C(F)(F)F	IIIB		luminescence	0.01013 µM
CCOC(=O)c1ccc(CN2CCC(Nc3nc(Oc4c(C)cc(C#N)cc4C)c4ccsc4n3)CC2)cc1	IIIB	NNRTI-resistant (RT L100I)	MTT	1.44 µM
Cc1nc(CCCCCCC(=O)c2ccccc2)n2nc(NCCCCCCCCCCCCN)ccc12	IIIB		RT activity	>10 µM
COC(=O)N[C@H](C(=O)N[C@@H](Cc1ccc(C#Cc2ccc(N3CC4CCC(C3)N4CC(F)F)nc2)cc1)[C@@H](O)CN(Cc1c(F)cc(-c2ccn(C(F)F)n2)cc1F)NC(=O)[C@@H](NC(=O)OC)C(C)(C)C(F)(F)F)C(C)(C)C(F)(F)F	IIIB		luminescence	0.03703 µM
Cc1cc(/C=C/C#N)cc(C)c1Oc1nc(NC2CCN(Cc3ccccc3Br)CC2)nc2ccsc12	IIIB	NNRTI-resistant (RT L100I)	MTT	0.0478 µM
COc1cc(C(C#N)c2c(F)cccc2F)nc(N(C)C)n1	IIIB		MTT	3 µM
COC(=O)[C@H](C)NP(=O)(OC[C@@H]1C=C[C@H](n2cc(C)c(=O)[nH]c2=O)O1)Oc1ccccc1	IIIB		cytopathic effect / MTT	0.066 µM
Cc1cc(/C=C/C#N)cc(C)c1Oc1nc(NC2CCN(Cc3ccc(C#N)cc3)CC2)nc2ccsc12	RES056		MTT	0.0597 µM
Cc1c(C(O)c2c(F)cccc2F)nc(N(C)C)[nH]c1=O	IIIB	Y181C	MTT	>50 µM
CC(C)[C@H](NC(=O)[C@H](NCc1ccc(Cl)cc1)[C@H](O)[C@H](Cc1ccccc1)NC(=O)[C@@H](NC(=O)OCc1ccccc1)C(C)(C)C)C(=O)NCc1nc2ccccc2[nH]1	RF		p24	0.038 µM
Cc1cc(/C=C/C#N)cc(C)c1Oc1nc(NC2CCN(Cc3ccc(Cl)cc3)CC2)nc2ccsc12	IIIB	NNRTI-resistant (RT E138K)	MTT	0.152 µM
COC(=O)N[C@H](C(=O)N[C@@H](Cc1ccc(C#Cc2ccc(N3CC4CCC(C3)N4C3(C)COC3)nc2)cc1)[C@@H](O)CN(Cc1c(F)cc(-c2ccn(C(F)F)n2)cc1F)NC(=O)[C@@H](NC(=O)OC)C(C)(C)C(F)(F)F)C(C)(C)C(F)(F)F	IIIB		luminescence	0.00264 µM
Cc1cc(-c2ccc(C#N)cc2)cc(C)c1Oc1ccnc(S(=O)(=O)C(C)C(=O)Nc2ccc(Cl)cc2)n1	IIIB		MTT	0.025 µM
O=c1nc(N=CN2CCOCC2)ccn1[C@H]1C[C@H](CO)[C@@H](CO)O1	TIBO-resistant		XTT	9.4 µM
Cc1cn([C@@H]2O[C@H](C3CO[Si](C(C)C)(C(C)C)O[Si](C(C)C)(C(C)C)O3)C3(OS(=O)(=O)C=C3N)[C@H]2O)c(=O)[nH]c1=O	IIIB		cytopathic effect	>6.3 µM
COc1cccc(F)c1C(=O)c1nc(N(C)C)nc(OC)c1C	IIIB	Y181C	MTT	>7.8 µM
CC(C)N(C=Nc1ccn([C@H]2C[C@H](CO)[C@@H](CO)O2)c(=O)n1)C(C)C	IIIB		XTT	4.5 µM
CCOCc1cn([C@H]2C=C[C@@H](CO)O2)c(=O)[nH]c1=O	IIIB		RT activity	6 µM
COc1nc(N(C)C)nc(C(C#N)c2c(F)cccc2F)c1C	IIIB		MTT	>10 µM
C/C=C/C=C/C=NC=Nc1ccn([C@H]2C[C@H](CO)[C@@H](CO)O2)c(=O)n1	IIIB		XTT	13.1 µM
COc1nc(N(C)C)nc(Cc2c(F)cccc2F)c1C	IIIB	K103N + Y181C	MTT	>67 µM
CC(C)[C@H](NC(=O)OCc1ccccc1)C(=O)N[C@@H](Cc1ccccc1)[C@@H](O)[C@@H](NCc1ccc(Br)cc1)C(=O)N[C@H](C(=O)NCc1nc2ccccc2[nH]1)C(C)C	IIIB		cytopathic effect	0.11 µM
COc1nc(N(C)C)nc(C(=O)c2c(F)cccc2F)c1C	IIIB	Y181C	MTT	>20 µM
C=C1CN(S(=O)(=O)c2ccc(C)cc2)CCCN(Cc2ccccc2)CCCN(S(=O)(=O)c2ccc(C)cc2)C1	IIIB		cytopathic effect	0.3 µM
CC(C)[C@H](NC(=O)[C@H](NCc1ccccc1)[C@H](O)[C@H](Cc1ccccc1)NC(=O)[C@@H](NC(=O)OCc1ccccc1)C(C)(C)C)C(=O)NCc1ccccc1	RF		p24	0.534 µM

The last 3 rows once more:

COc1nc(N(C)C)nc(C(=O)c2c(F)cccc2F)c1C ; strain: IIIB ; mutations: Y181C ; read by: MTT ; result: >20 µM
C=C1CN(S(=O)(=O)c2ccc(C)cc2)CCCN(Cc2ccccc2)CCCN(S(=O)(=O)c2ccc(C)cc2)C1 ; strain: IIIB ; read by: cytopathic effect ; result: 0.3 µM
CC(C)[C@H](NC(=O)[C@H](NCc1ccccc1)[C@H](O)[C@H](Cc1ccccc1)NC(=O)[C@@H](NC(=O)OCc1ccccc1)C(C)(C)C)C(=O)NCc1ccccc1 ; strain: RF ; read by: p24 ; result: 0.534 µM